Results deposited as PubChem BioAssay AID1259414 (Drosophila RNAi Screening Center, 2018).

Purpose: 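Host factors increasing or decreasing Wolbachia levels in cultured fly cells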 (primary screen)
System: Drosophila JW18 cells infected with Wolbachia
Knock-down reagent: long dsRNA against Drosophila genes, 0.25 µg dsRNA per well of a 384-well plate
Time to read-out: 5 days
Challenge: cells persistently infected with Wolbachia before knock-down; no added drug
Measurement: 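Automated imaging of bacterial rRNA staining divided by host cell count, reported as plate-normalised robust z-score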
Direction: Wolbachia per cell robust z: higher = more Wolbachia per host cell than the plate typical
Rule for the call: 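Hit when robust z is 1.5 or more, or -1.5 or less, in at least two of three replicates; excludes dsRNAs with several or no targets, genes not expressed in JW18 and well A1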
The deposit covers about 24,000 reagents; below is an unselected part of those with a known target gene and a result. In the full data, about 1,210 (5%) were called active. 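Inactive calls also include excluded dsRNAs with several or no targets, genes unexpressed in JW18, and well A1, regardless of score.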 A number with no mark means an inactive call. Names joined by + are all predicted targets of the reagent.

{"Gene": "lncRNA:CR40172", "DRSC id": "DRSC37759", "Wolbachia per cell robust z, rep 1": -5.15, "Wolbachia per cell robust z, rep 2": 0.212, "Wolbachia per cell robust z, rep 3": -0.323}
{"Gene": "CG14082", "DRSC id": "DRSC10086", "Wolbachia per cell robust z, rep 1": -0.492, "Wolbachia per cell robust z, rep 2": -1.18, "Wolbachia per cell robust z, rep 3": -0.114}
{"Gene": "CG14082", "DRSC id": "DRSC25472", "Wolbachia per cell robust z, rep 1": 1.21, "Wolbachia per cell robust z, rep 2": -0.126, "Wolbachia per cell robust z, rep 3": 0.531}
{"Gene": "CG9416", "DRSC id": "DRSC07339", "Wolbachia per cell robust z, rep 1": 1.01, "Wolbachia per cell robust z, rep 2": -0.237, "Wolbachia per cell robust z, rep 3": 0.126}
{"Gene": "CG13063", "DRSC id": "DRSC09946", "Wolbachia per cell robust z, rep 1": -0.0783, "Wolbachia per cell robust z, rep 2": -0.304, "Wolbachia per cell robust z, rep 3": 1.38}
{"Gene": "CG13063", "DRSC id": "DRSC25466", "Wolbachia per cell robust z, rep 1": 0.712, "Wolbachia per cell robust z, rep 2": 0.792, "Wolbachia per cell robust z, rep 3": 0.761}

Copied from above, 2 entries:
{"Gene": "CG9416", "DRSC id": "DRSC07339", "Wolbachia per cell robust z, rep 1": 1.01, "Wolbachia per cell robust z, rep 2": -0.237, "Wolbachia per cell robust z, rep 3": 0.126}
{"Gene": "CG13063", "DRSC id": "DRSC09946", "Wolbachia per cell robust z, rep 1": -0.0783, "Wolbachia per cell robust z, rep 2": -0.304, "Wolbachia per cell robust z, rep 3": 1.38}

Additional entries:
{"Gene": "Rab26", "DRSC id": "DRSC11838", "Wolbachia per cell robust z, rep 1": 0.873, "Wolbachia per cell robust z, rep 2": 0.641, "Wolbachia per cell robust z, rep 3": -1.53}
{"Gene": "Rab26", "DRSC id": "DRSC11839", "Wolbachia per cell robust z, rep 1": -3.08, "Wolbachia per cell robust z, rep 2": -0.0703, "Wolbachia per cell robust z, rep 3": -0.367}
{"Gene": "Rab26", "DRSC id": "DRSC24968", "Wolbachia per cell robust z, rep 1": -0.48, "Wolbachia per cell robust z, rep 2": -0.695, "Wolbachia per cell robust z, rep 3": 1.33}
{"Gene": "Rab26", "DRSC id": "DRSC27712", "Wolbachia per cell robust z, rep 1": 0.0431, "Wolbachia per cell robust z, rep 2": 0.517, "Wolbachia per cell robust z, rep 3": 0.53}
{"Gene": "CR18275 + CG32817 + CR18166", "DRSC id": "DRSC17249", "Wolbachia per cell robust z, rep 1": -0.0812, "Wolbachia per cell robust z, rep 2": 0.39, "Wolbachia per cell robust z, rep 3": -0.48}
{"Gene": "Cpr72Ec", "DRSC id": "DRSC10449", "Wolbachia per cell robust z, rep 1": 0.0724, "Wolbachia per cell robust z, rep 2": 0.947, "Wolbachia per cell robust z, rep 3": -0.368}
{"Gene": "Rtnl1", "DRSC id": "DRSC00851", "Wolbachia per cell robust z, rep 1": 0.371, "Wolbachia per cell robust z, rep 2": 0.00359, "Wolbachia per cell robust z, rep 3": 1.14}
{"Gene": "Rtnl1", "DRSC id": "DRSC02684", "Wolbachia per cell robust z, rep 1": 0.408, "Wolbachia per cell robust z, rep 2": 0.115, "Wolbachia per cell robust z, rep 3": -1.4}
{"Gene": "Rtnl1", "DRSC id": "DRSC03122", "Wolbachia per cell robust z, rep 1": -1.09, "Wolbachia per cell robust z, rep 2": -3.06, "Wolbachia per cell robust z, rep 3": 0.387}
{"Gene": "Rtnl1", "DRSC id": "DRSC21698", "Wolbachia per cell robust z, rep 1": -0.00938, "Wolbachia per cell robust z, rep 2": 1.01, "Wolbachia per cell robust z, rep 3": 0.575}
